Measurements: patent publication US20240092860A1

Target: rhesus CD38 on BLCL-C162 cells (rhesus) (UniProt Q5VAN0)
Assay: cell-based or functional assay

“Shiga toxin effector polypeptide only control” was tested, and the Cytotoxicity CD50, rhesus BLCL-C162 cells was > 2000 ng/mL.
